## DMS reactivity of the HIV-1 5' RNA in monomer and dimer

The measurements come from Ye et al. 2022 (doi:10.1038/s41594-022-00746-2).

RNA: 5' end of the HIV-1 NL4-3 genome, made in vitro. Positions 1-437 read:
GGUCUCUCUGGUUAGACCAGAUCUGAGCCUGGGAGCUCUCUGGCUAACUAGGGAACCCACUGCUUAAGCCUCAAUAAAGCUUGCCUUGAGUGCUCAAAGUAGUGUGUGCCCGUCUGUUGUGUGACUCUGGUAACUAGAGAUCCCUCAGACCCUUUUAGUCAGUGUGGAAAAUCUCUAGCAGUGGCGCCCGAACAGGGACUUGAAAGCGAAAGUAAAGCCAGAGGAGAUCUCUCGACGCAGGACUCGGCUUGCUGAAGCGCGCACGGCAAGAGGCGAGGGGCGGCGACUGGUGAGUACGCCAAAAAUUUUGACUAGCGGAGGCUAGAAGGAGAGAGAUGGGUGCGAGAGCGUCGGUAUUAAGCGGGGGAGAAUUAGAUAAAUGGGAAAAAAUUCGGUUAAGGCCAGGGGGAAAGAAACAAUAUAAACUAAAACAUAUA

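Randomly mutated transcripts starting with one, two or three G (1G, 2G, 3G), capped or uncapped, were folded for 30 min at 37 °C. Monomer and dimer bands were cut from native gels after folding in high salt (300 mM KCl, 5 mM MgCl2) or low salt (40 mM KCl, 0.1 mM MgCl2). Gel slices were treated with 170 mM dimethyl sulfate for 15 min at 37 °C and read by mutational profiling against an ethanol control.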

Scale: normalised reactivity, A and C only; low values point to paired or protected bases, higher values to unpaired ones.
One numbering serves 1G, 2G and 3G.
A position is written with its base.

position,3G uncapped low-salt dimer,3G uncapped low-salt monomer
C173,0.05,0.03
C175,0.05,0.03
A177,0.27,0.24
C179,1.00,0.95
A180,0.67,0.66
C185,0.53,0.49
C187,0.05,0.03
C188,0.06,0.06
C189,0.09,0.07
A191,0.38,0.41
A192,0.87,0.86
C193,0.93,0.95
A194,1.14,1.18
A198,0.53,0.61
C199,0.50,0.44
A203,0.47,0.51
A204,0.62,0.71
A205,0.24,0.32
C207,0.50,0.45
A209,0.41,0.46
A210,0.43,0.53
A211,0.45,0.41
A214,0.29,0.28
A215,0.59,0.55
A216,0.69,0.64
C218,0.05,0.03
C219,0.05,0.03
A220,0.18,0.30
A222,0.20,0.24
A225,0.82,0.80
A227,0.26,0.34
C229,0.13,0.35
C231,0.14,0.23
C233,0.19,0.36
A235,0.67,0.61
C236,0.46,0.51
C238,0.51,0.85
A239,0.66,0.59
A242,1.03,0.81
C243,0.05,0.06
C245,0.07,0.34
C248,0.05,0.06
C252,0.09,0.32
A255,0.39,0.47
A256,0.93,0.78
C258,0.28,0.32
C260,0.40,0.42
C262,0.27,0.38
A263,0.80,0.23
C264,0.23,0.50
C267,0.06,0.13
A268,0.16,0.24
A269,0.26,0.41
A271,0.47,0.50
C274,0.26,0.82
A276,0.40,1.19
C281,0.41,0.36
C284,0.15,0.20
A286,0.54,0.52
C287,0.47,0.31
A293,0.83,0.73
A296,0.48,0.63
C297,0.11,0.19
C299,0.06,0.06
C300,0.05,0.05
A301,0.24,0.27

5 of these entries, quoted again:

position,3G uncapped low-salt dimer,3G uncapped low-salt monomer
A194,1.14,1.18
A227,0.26,0.34
A191,0.38,0.41
C179,1.00,0.95
A220,0.18,0.30